A mixed list of measured activities; the numbers were collected in NIAID ChemDB.

Common to all: whole-cell or culture tests; species: Mycobacterium tuberculosis

Blank or dashed fields: not listed here.

compound | cells | read by | dose | strain | changes | read-out | value
COc1cccc2c(NC(=S)Nc3cccc([N+](=O)[O-])c3)ccnc12 |  |  |  | Strain 1 (MDR) |  | MIC | 1 µg/mL
C=C(CC)CO/N=C/c1c2c(O)c3c(O)c(C)c4c(c3c1O)C(=O)[C@@](C)(O/C=C/[C@H](OC)[C@@H](C)[C@@H](OC(C)=O)[C@H](C)[C@H](O)[C@H](C)[C@@H](O)[C@@H](C)/C=C/C=C(/C)C(=O)N2)O4 |  |  |  | H37Rv |  | MIC | 0.2 µg/mL
CS/C(N)=N\N=C\c1ccnnc1 |  |  |  | ATCC 35822 (isoniazid-resistant) |  | MIC | >100 µg/mL
C=C(NC(=O)C(C)NC(=O)OCc1ccccc1)C(=O)N1CCCC1C(=O)NC(C)C(=O)NC |  | BACTEC | 12.5 µg/mL | H37Rv |  | inhibition | 6%
NNC(=O)c1ccncc1 |  |  |  |  |  | MIC | 0.06 µg/mL
NC(=S)c1nnn(Cc2ccccc2)c1N |  | resazurin |  | mc4914 InhA overexpressing |  | MIC | 125 µM
NNC(=O)c1ccncc1 |  | broth dilution |  | INHR-MTB | INH resistant | MIC | 11.37 µM
CCCCCCCN1C(=O)c2ccnnc2Oc2cc(C)ccc21 |  | BACTEC |  | H37Rv |  | EC50 | >12.5 µg/mL
NCCC[C@H](N)CC(=O)N[C@H]1CNC(=O)[C@H]([C@H]2C[C@H](O)NC(N)=N2)NC(=O)/C(=C/NC(N)=O)NC(=O)[C@H](CO)NC(=O)[C@H](CO)NC1=O |  |  |  | BCG |  | MIC | 2 µg/mL
CCCCCN1C(=O)C(=O)c2cccc(-c3ccccc3)c21 |  |  |  | H37Ra |  | MIC | ≤20 µg/mL
O=[N+]([O-])c1ccc2sc3nnc(SCc4ccc(F)cc4)n3c2c1 |  |  |  | H37Rv |  | MIC | 1 µg/mL
C[N+](C)(C)CC(=O)N/N=c1\cc(C(=O)Nc2ccc(N=O)cc2C#N)oc2cc(O)ccc12.[Cl-] |  | BACTEC |  | H37Rv |  | MIC bound | >12.5 µg/mL
CCCCCCN1C(=O)C(=O)c2cccc(-c3ccccc3)c21 |  |  |  | H37Ra |  | MIC | ≤20 µg/mL
Cc1ccc2nccc(Nc3ccc(S(=O)(=O)Nc4ccnn4-c4ccccc4)cc3)c2c1 |  |  |  | Strain 2 (MDR) |  | MIC | 4 µg/mL
CCCCCCCCCCCCN1C(=O)C(=O)c2cccc(-c3ccccc3)c21 |  |  |  | H37Ra |  | MIC | ≤20 µg/mL
CCOC(=O)c1ccc(N2CCN(CCn3c(-c4ccc(Cl)cc4)nc4cc(C(=O)OCC)ccc43)CC2)c(N)c1 |  | resazurin |  | H37Rv |  | MIC | 0.195 µM
Cn1c(=O)c2nncnc2n(C)c1=O |  | BACTEC | 12.5 µg/mL | H37Rv |  | inhibition | 0%
CCCCCO/N=C/c1c2c(O)c3c(O)c(C)c4c(c3c1O)C(=O)[C@@](C)(O/C=C/[C@H](OC)[C@@H](C)[C@@H](OC(C)=O)[C@H](C)[C@H](O)[C@H](C)[C@@H](O)[C@@H](C)/C=C/C=C(/C)C(=O)N2)O4 |  |  |  | H37Rv |  | MIC | 1 µg/mL
CO[C@H]1/C=C/O[C@@]2(C)Oc3c(C)c(O)c4c(c3C2=O)C(=O)C=C(NC(=O)C(C)CCC[C@H](C)[C@H](O)[C@@H](C)[C@@H](O)[C@@H](C)[C@H](OC(C)=O)[C@@H]1C)C4=O |  |  |  |  |  | MIC | 0.01 µg/mL
CC(C)O/N=C/c1cc(NC(=S)OC(C)C)ccc1Cl | VERO |  |  | H37Rv |  | MIC | 3.13 µg/mL
CO[C@H]1/C=C/O[C@@]2(C)Oc3c(C)c(O)c4c(O)c(c(/C=N/OCCN5CCCCC5)c(O)c4c3C2=O)NC(=O)/C(C)=C\C=C\[C@H](C)[C@H](O)[C@@H](C)[C@@H](O)[C@@H](C)[C@H](OC(C)=O)[C@@H]1C |  |  |  | H37Rv |  | MIC | 2 µg/mL
O=C1CSC(c2cc([N+](=O)[O-])ccc2Cl)N1c1nncs1 |  | BACTEC | 12.5 µg/mL | H37Rv |  | inhibition | 18%
CCOC(=O)c1ccc(N2CCN(CCn3c(-c4ccc5c(c4)OCO5)nc4cc(C(=O)OCC)ccc43)CC2)c(N)c1 |  | resazurin |  | H37Rv |  | MIC | 6.219 µM
O=C1C(=O)N(CCN2CCN(Cc3ccccc3)CC2)c2c1cccc2C1CCCCC1 |  |  |  | H37Rv |  | MIC | ≤20 µg/mL
CCN(CC)Cc1c2c(O)c3c(O)c(C)c4c(c3c1O)C(=O)[C@@](C)(O/C=C/[C@H](OC)[C@@H](C)[C@@H](O)[C@H](C)[C@H](O)[C@H](C)[C@@H](O)[C@@H](C)/C=C/C=C(/C)C(=O)N2)O4 |  |  |  |  |  | MIC | 2 µg/mL
COc1cc2c(cc1O)CC[n+]1cc3c(OC)c(OC)ccc3cc1-2 |  | BACTEC |  | H37Rv |  | MIC | 12.5 µg/mL
Cc1cc(C)nc(NS(=O)(=O)c2nnc3sc4ccccc4n23)c1 |  |  |  | H37Rv |  | MIC | 2 µg/mL
CCS/C(N)=N\N=C\c1cccnc1 |  |  |  | H37Rv (ATCC 27294) |  | MIC | >100 µg/mL
CO[C@H]1/C=C/O[C@@]2(C)Oc3c(C)c(O)c4c(O)c(cc(O)c4c3C2=O)NC(=O)/C(C)=C\C=C\[C@H](C)[C@H](O)[C@@H](C)[C@@H](O)[C@@H](C)[C@H](OC(C)=O)[C@@H]1C |  |  |  |  |  | MIC | 25 µg/mL
C=C(C)CO/N=C/c1c2c(O)c3c(O)c(C)c4c(c3c1O)C(=O)[C@@](C)(O/C=C/[C@H](OC)[C@@H](C)[C@@H](OC(C)=O)[C@H](C)[C@H](O)[C@H](C)[C@@H](O)[C@@H](C)/C=C/C=C(/C)C(=O)N2)O4 |  |  |  | H37Rv |  | MIC | 0.2 µg/mL
C=C(CC[C@@H](C(=O)O)[C@H]1CC[C@@]2(C)C3=C(CC[C@]12C)[C@@]1(C)CC[C@H](O)C(C)(C)[C@@H]1CC3)C(C)C |  | BACTEC | 12.8 µg/mL | H37Rv |  | inhibition | 5%
CCCCOCCOCCO/N=C/c1c2c(O)c3c(O)c(C)c4c(c3c1O)C(=O)[C@@](C)(O/C=C/[C@H](OC)[C@@H](C)[C@@H](OC(C)=O)[C@H](C)[C@H](O)[C@H](C)[C@@H](O)[C@@H](C)/C=C/C=C(/C)C(=O)N2)O4 |  |  |  | H37Rv |  | MIC | 0.5 µg/mL
COc1ccc(NCCN(C)C)c2c(=O)c3ccccc3sc12 |  | BACTEC | 12.5 µg/mL | H37Rv |  | inhibition | 100%
CO[C@H]1/C=C/O[C@@]2(C)Oc3c(C)c(O)c4c(c3C2=O)C(=O)C=C(NC(=O)/C(C)=C\C=C\C(C)(O)C(=O)[C@@H](C)[C@@H](O)[C@@H](C)[C@H](OC(C)=O)[C@@H]1C)C4=O |  |  |  |  |  | MIC | >10 µg/mL
O=c1c2ccccc2c2nccn2c2ccccc12 |  | resazurin |  | H37Rv |  | MIC bound | >6.25 µg/mL
CO[C@H]1/C=C/O[C@@]2(C)Oc3c(C)c(O)c4c(O)c(c(/C=N/OCCCc5ccccc5)c(O)c4c3C2=O)NC(=O)/C(C)=C\C=C\[C@H](C)[C@H](O)[C@@H](C)[C@@H](O)[C@@H](C)[C@H](OC(C)=O)[C@@H]1C |  |  |  | H37Rv |  | MIC | 1 µg/mL
COc1ccc2nccc(Nc3ccc(S(=O)(=O)Nc4ccnn4-c4ccccc4)cc3)c2c1 |  |  |  | Strain 2 (MDR) |  | MIC | >2 µg/mL
CCCCCN1C(=O)c2cc(Cl)nnc2Oc2ccc3ccccc3c21 |  | BACTEC | 12.5 µg/mL | H37Rv |  | inhibition | 54%
CCCCCC(CC)O/N=C/c1c2c(O)c3c(O)c(C)c4c(c3c1O)C(=O)[C@@](C)(O/C=C/[C@H](OC)[C@@H](C)[C@@H](OC(C)=O)[C@H](C)[C@H](O)[C@H](C)[C@@H](O)[C@@H](C)/C=C/C=C(/C)C(=O)N2)O4 |  |  |  | H37Rv |  | MIC | 2 µg/mL
NC(=S)N/N=C1\C(=O)N(Cc2ccccc2)C(=O)C1C(=O)NCc1ccccc1 |  | resazurin | 6.25 µg/mL | H37Rv |  | inhibition | -3%
CCCCCN1C(=O)c2cc(Cl)nnc2Oc2ccccc21 |  | BACTEC | 12.5 µg/mL | H37Rv |  | inhibition | 32%
Nc1cccc(O)c1 |  |  |  | Strain 1 (MDR) |  | MIC | 0.5 µg/mL
O=C1C(=O)N(CCN2CCN(Cc3ccccc3)CC2)c2ccc(N3CCCCC3)cc21 |  |  |  | H37Rv |  | MIC | ≤20 µg/mL
Cc1c(CN2CCSCC2)cc(-c2ccc(F)cc2)n1-c1ccc(Cl)cc1 |  |  |  | 103471 |  | MIC | 2 µg/mL
COc1cccc2c(NC(=S)Nc3ccc(Cl)cc3)ccnc12 |  |  |  | Strain 1 (MDR) |  | MIC | 0.5 µg/mL
CNC(=O)OCC1=C([Si](C)(C)C)C(=O)C(OC)=C(OC)C1=O |  | resazurin |  | H37Rv |  | MIC bound | >6.25 µg/mL
O=S(=O)(Nc1ccc(F)cc1)c1nnc2sc3ccccc3n12 |  |  |  | H37Rv |  | MIC | 50 µg/mL
CO[C@H]1/C=C/O[C@@]2(C)Oc3c(C)c(O)c4c(O)c(c(/C=N/OC(c5ccccc5)c5ccccc5)c(O)c4c3C2=O)NC(=O)/C(C)=C\C=C\[C@H](C)[C@H](O)[C@@H](C)[C@@H](O)[C@@H](C)[C@H](OC(C)=O)[C@@H]1C |  |  |  | H37Rv |  | MIC | 1 µg/mL
Fc1ccc(NC(=S)SCc2ccc3c(c2)OCO3)cc1F |  | BACTEC |  | H37Rv |  | MIC | 128 µg/mL
O=C1C(=O)N(CCCCBr)c2ccc(C3CCCCC3)cc21 |  |  |  | H37Ra |  | MIC | ≤20 µg/mL
C/C(=N\NC(=O)c1ccncc1)c1ccccc1F |  | BACTEC | 0.5 µM |  |  | inhibition | 0%
Cc1ccc(C)c(NS(=O)(=O)c2nnc3sc4ccccc4n23)c1 |  |  |  | H37Rv |  | MIC | >200 µg/mL
NCC[C@H](O)C(=O)N[C@@H]1C[C@H](N)[C@@H](O[C@H]2O[C@H](CN)[C@@H](O)[C@H](O)[C@H]2O)[C@H](O)[C@H]1O[C@H]1O[C@H](CO)[C@@H](O)[C@H](N)[C@H]1O |  |  |  |  |  | MIC | 1 µg/mL
CC(C)=CCOc1c2ccoc2cc2oc(=O)ccc12.NNC(=O)c1ccncc1 |  | agar |  | H37Rv clinical isolate CRY2 | Isoniazid-resistant | MIC100 | 6.25 µg/mL
NC(N)=N/N=C1\C(=O)N(C2CCCCCC2)C(=O)C1C(=O)NC1CCCCCC1 |  | BACTEC | 12.8 µg/mL | H37Rv |  | inhibition | -5%
CCCCCCCCCN1C(=O)C(=O)c2cccc(-c3ccccc3)c21 |  |  |  | H37Rv |  | MIC | ≤20 µg/mL
CO[C@H]1/C=C/O[C@@]2(C)Oc3c(C)c(O)c4c(c3C2=O)C2(C=C(NC(=O)/C(C)=C\C=C\[C@H](C)[C@H](O)[C@@H](C)[C@@H](O)[C@@H](C)[C@H](OC(C)=O)[C@@H]1C)C4=O)OCC(=O)O2 |  |  |  |  |  | MIC | 75 µg/mL
C[C@H]1[C@H](C)CC[C@]2(C(=O)O)CC[C@]3(C)C(=CC[C@@H]4[C@@]5(C)C[C@@H](O)[C@H](O)[C@@](C)(CO)[C@@H]5[C@H](O)C[C@]43C)[C@H]12 |  | BACTEC |  | H37Rv |  | MIC bound | >12.8 µg/mL
CCOC(=O)c1ccc(N2CCN(CCn3c(-c4ccc(O)cc4O)nc4cc(C(=O)OCC)ccc43)CC2)c(N)c1 |  | broth dilution |  | H37Rv |  | MIC | 4.32 µM
CCC[C@@H]1C[C@@H](C(=O)N[C@@H]([C@H]2O[C@H](SC)[C@H](O)[C@@H](O)[C@H]2O)[C@H](C)Cl)N(C)C1 |  |  |  | H37Rv |  | MIC | >64 µg/mL
COC(=O)c1c(C)cc(OC)c(C/C=C(\C)CCCc2coc(C=C(C)C)c2)c1OC |  | BACTEC | 12.5 µg/mL | H37Rv |  | inhibition | 19%
Nc1ccc(S(=O)(=O)c2ccc(N)cc2)cc1 |  |  |  | BCG |  | MBC | >128 µg/mL
CN(C)c1ccc2nc3ccc(=N)cc-3sc2c1.Cl |  | BACTEC | 12.5 µg/mL | H37Rv |  | inhibition | 44%
O=S(=O)(Nc1ccnn1-c1ccccc1)c1ccc(Nc2ccnc3ccc(Cl)cc23)cc1 |  |  |  | Strain 2 (MDR) |  | MIC | 4 µg/mL
c1ccc(-c2ccnc3c2ccc2c(-c4ccccc4)ccnc23)cc1 |  | BACTEC |  | H37Rv |  | MIC bound | ≤12.5 µg/mL
CO[C@H]1/C=C/O[C@@]2(C)Oc3c(C)c(O)c4c(O)c(c(C=O)c(O)c4c3C2=O)NC(=O)/C(C)=C\C=C\[C@H](C)[C@H](O)[C@@H](C)[C@@H](O)[C@@H](C)[C@H](OC(C)=O)[C@@H]1C |  |  |  |  |  | MIC | 0.1 µg/mL
CCOC(=O)Nc1cc(F)c(F)cc1F |  | BACTEC |  | H37Rv |  | MIC bound | >12.5 µg/mL
COc1cc2c(cc1O)-c1cc(O)c(OC)c(OC)c1C=CC2 |  |  |  | H37Rv |  | MIC | 25 µg/mL
C/C(CC(=O)Nc1ccc(Cl)cc1)=N\NC(=O)C[n+]1ccccc1.[Cl-] |  | BACTEC |  | H37Rv |  | MIC bound | >12.5 µg/mL
O=C1C(=O)N(CCCCBr)c2c1cccc2-c1ccccc1 |  |  |  | H37Ra |  | MIC | ≤20 µg/mL

Inhibition is in % at the dose shown (toxicity tests: loss of growth or viability). ECn: concentration that inhibits the pathogen or its effect by n%. MIC50, MIC90 and the like: level of inhibition, or share of isolates inhibited. MIC bound comes from a single tested concentration. Conditions beyond the fields shown may differ between rows.